Anti-infective test results gathered from many reports (values: NIAID ChemDB through PubChem).

Shared fields: growth or infection tests; species: Herpes simplex virus 2; endpoint: MIC

a–b is a range or a potency band. An empty or dashed field is not shown. Conditions beyond the fields shown may differ between rows.

SMILES	strain or isolate	value
Nc1nccc2c1ncn2[C@@H]1C=C(CO)[C@@H](O)[C@H]1O	G	>400 µg/mL
O=P1(O)OCC2O[C@@H](n3cnc4c(SCc5ccccc5)ncnc43)[C@H](O)C2O1	MS	10 µg/mL
Nc1ncnc2c1ncn2[C@@H]1C=C[C@@H](O)[C@H]1O	G	300 µg/mL
Nc1nc2c(ccn2[C@@H]2C[C@H](CO)[C@H](O)[C@@H]2O)c(=O)[nH]1		25 µg/mL
CCc1cn([C@H]2C[C@H](O)[C@@H](CO)O2)c(=O)[nH]c1=O	MS	10 µg/mL
NNC(=O)Cc1nc2n(n1)CCCCC2	G	>400 µg/mL
CSc1ncnc2c1ncn2[C@@H]1OC2COP(=O)(O)OC2[C@H]1O	MS	3.2 µg/mL
C=Cc1cn([C@@H]2O[C@H](CO)[C@@H](O)[C@@H]2O)c(=O)[nH]c1=O		1 µg/mL
CCCc1cn([C@@H]2O[C@H](CO)[C@@H](O)[C@@H]2O)c(=O)[nH]c1=O	MS	320 µg/mL
CCn1nc(-c2ccc(Cn3ccc4ccccc43)cc2)nc1C	G	80 µg/mL
Nc1ncnc2c1ncn2[C@@H]1C[C@H](CO)[C@@H](O)[C@@H]1O	MS	10 µg/mL
Cc1cn([C@@H]2O[C@H](CO)[C@@H](O)[C@@H]2O)c(=O)[nH]c1=O		1 µg/mL
O=c1[nH]c(=O)n([C@H]2C[C@H](O)[C@@H](CO)O2)cc1I	URB	11 µg/mL
N=c1c2ncn([C@@H]3O[C@H](COP(=O)(O)O)[C@@H](O)[C@@H]3O)c2ncn1O		1–10 µg/mL
CCn1nc(Cc2n[nH]c(=S)o2)nc1C	G	>400 µg/mL
CCC(=O)C(CCCc1ccc(O)cc1)C(=O)CC		>50 µg/mL
COc1ccc(-n2c(Cc3nc4n(n3)CCCC4)n[nH]c2=S)cc1	G	80 µg/mL
Nc1ccn(C[C@@H](CO)OCP(=O)(O)O)c(=O)n1		10 µg/mL
Cc1nc(CC(=O)NN)nn1C	G	>400 µg/mL
Nc1ncnc2c1ncn2C[C@@H](CO)OCP(=O)(O)O		4 µg/mL

Again, the opening 3 rows:

SMILES	strain or isolate	value
Nc1nccc2c1ncn2[C@@H]1C=C(CO)[C@@H](O)[C@H]1O	G	>400 µg/mL
O=P1(O)OCC2O[C@@H](n3cnc4c(SCc5ccccc5)ncnc43)[C@H](O)C2O1	MS	10 µg/mL
Nc1ncnc2c1ncn2[C@@H]1C=C[C@@H](O)[C@H]1O	G	300 µg/mL